## Primary screen of a compound library

From ChEMBL document CHEMBL3988442, “University of Dundee, Small-Polar-MMV Screening Library” (2021).

Each number is a percent effect as filed. The record does not define 0% and 100%; most values in the screen are far below 50% and negative numbers occur (in some assays of this library far below -100). This is part of a subset picked to be rich in strong results. Two or more numbers in one place are separate tests of the same structure; such repeats can differ widely.

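Phenotypic screen: M. tuberculosis growth, glucose 7H9 medium, 3 days; the read-out is not stated. Compounds at 50 µM. The record gives no direction; compounds that gave an IC50 in retests scored well above the rest, so higher reads as more growth inhibition. About 69,000 compounds were tested under these conditions; 1.1% (about 760) showed 50% or more at least once.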

SMILES	percent effect
O=C(NCC(O)c1ccc(Cl)c(F)c1)NC1CC=CC1 (stereo not shown)	17.54%
CCC(=O)Nc1ccc(F)c(S(=O)(=O)NC(C)(C)C)c1	-48.39%
Cn1ccc(-c2cc(C(=O)N3CCC(C(N)=O)CC3)c3ccccn23)n1	27.57%
Cc1nc(N(C)C)nc(C)c1NC(=O)c1ccccc1F	23.61%
COCCNc1nc2c(c(NCc3cnc(C)cn3)n1)CCNCC2	11.38%
CC1(C)CN(C(=O)CC2CCS(=O)(=O)CC2)C[C@]1(C)O	15.08%
CCc1noc(CNc2nc(-c3cccnc3)nc3c2CCNCC3)n1	39.55%
NC(=O)c1ccc(CNC2CCCSC2)cc1 (stereo not shown)	-4.651%
Cc1nc(CN2CCCC(N(C)CCCc3ccccc3)C2)no1 (stereo not shown)	-25.5% and -7.434%
CCc1nc(CN(C)Cc2nnc(-c3cccs3)o2)cs1	53.77% and 37.01%
CN1CCN(C(=O)c2cc(-c3ccco3)cs2)CC1	10.12%
CCn1nc(C)c2nc(C)nc(N(C)Cc3ccco3)c21	13.29%
O=C(NCC1COC2(CCOCC2)O1)c1csc(-c2cccc(Cl)c2)n1 (stereo not shown)	50.12%
CC1(c2ccccc2)CCCN(Cc2cncn2C2CCCC2)C1 (stereo not shown)	70.77%
CN(C)c1cc(C2CCCN2C(=O)c2noc3c2CCCC3)ccn1 (stereo not shown)	-0.1032%
CCOc1ncccc1CN1Cc2ncccc2C1=O	-3.068%
c1ccc(-c2cc(CN3CCCC(Cn4cncn4)C3)on2)cc1 (stereo not shown)	36.53%
CNC(=O)CNCC1(O)CCCN(Cc2ccc(F)c(F)c2)C1=O (stereo not shown)	23.51%
COc1cc(C(=O)N2CCC(Nc3cccnc3)CC2)ccc1C	5.698%
COc1coc(CN2CCCC(CCc3ccc(F)cc3)C2)cc1=O (stereo not shown)	28.29% and 40.3%
N#Cc1cc(Cl)ccc1N1CCN(C(=O)C2CCC2)CC1	102% and 12.93%
CN(C)c1cc(CNC(=O)Nc2nccs2)ccn1	-16.03%
CCn1nc(C)c2nc(C(C)C)nc(NCCc3ccc(O)cc3)c21	50.15%
COc1cccc(Nc2nc(N3CCCC3)nc3c2CNCC3)c1.Cl	54.07%
Cc1ccc(N2CCCC3(COCCN(c4cnccn4)C3)C2)nn1 (stereo not shown)	53.26%
COc1cccc(S(=O)(=O)CCN2CCCCC2)c1	-6.005%
COc1cc(NC(=O)NCc2nccn2C)ccc1Br	1.961%
O=C(c1cccnc1)N1Cc2[nH]nc(COCCO)c2C1	0.4828% and -1.037%
COCCn1cncc1CN1CCCC(C)(c2ccccc2)C1 (stereo not shown)	7.957%
CC1(C(=O)Nc2ccc(F)c(-n3cccc3)c2)CCOCC1	25.34%
Cc1nn(C)c(C)c1CCC(=O)N1CC(c2cccnc2)C1	-22.37%
CC(Cn1cccn1)NCc1csc(-c2cccs2)n1 (stereo not shown)	12.88%
FC(F)(F)c1cccc(OC2CCN(Cc3ncc[nH]3)CC2)c1	24.1%
FC(F)(F)Oc1ccc(-c2noc([C@@H]3Cc4nc[nH]c4CN3)n2)cc1	39.29% and 38.51%
CNS(=O)(=O)CCNc1cc(C)nc2cc(C)nn12	6.683%
Fc1cc(F)cc(CN2CCC(c3cc4ncccc4cn3)CC2)c1	9.196%
[H][C@]12CN(C(=O)c3ccno3)CCN1C(=O)N(Cc1ccc(C)cc1)C2	-12.05% and 4.08%
Cc1c[nH]c(CN2CCC3(CCCN(Cc4ccc(F)c(F)c4)C3)C2)n1 (stereo not shown)	51.36%
CC(C)(C)c1n[nH]cc1CNCC1CCN(CC(F)(F)F)C1.Cl (stereo not shown)	12.44% and -4.013%
CCN1C(=O)C2(CCOCC2)c2cc(NC(=O)c3cnoc3C)ccc21	53.38% and -1.818%
c1ccc2sc(N3CCC4(CCCN4Cc4ncc[nH]4)CC3)nc2c1	28.15%
CN(C)c1ccc(C(=O)N2CCCC2c2cnn(C)c2)nn1 (stereo not shown)	108.4% and -15.33%
Cc1cc(C(=O)NCCc2nc3c(s2)CCCC3)n(C)n1	19.63%
COc1cn(CC(=O)N2CCN(c3ccc(F)cc3)CC2)c(C)cc1=O	7.124%
Cc1nc(CN2CCC(NS(C)(=O)=O)CC2)co1	0.7448% and 60.76%
Cc1ccc(-n2c(C)nnc2SCC(O)COCc2ccco2)cc1 (stereo not shown)	52.47%
c1coc(-c2nc3c(c(NCc4n[nH]c5c4CCC5)n2)CCNCC3)c1	19.28%
COC(=O)c1ccc(CNC(C)(C)c2ccccc2OC)o1	-0.1996%
CC(Cn1cccn1)NCc1csc(-c2ccsc2)n1 (stereo not shown)	24.57%
Cl.NC(=O)COc1ccc(CNCc2cc(F)ccc2F)cc1	-56.32%
Clc1ccccc1C1(c2ccnc(C3CCCC3)n2)CCNCC1	58.05%
O=C(NCCc1cccc(Cl)c1)C1CCOCC1	2.885% and -11.89%
CCn1cc(CNCCNc2ncc(Cl)cc2Cl)cn1	-40.14%
Cc1ccc(NC2CCN(C(=O)C(C)n3cncn3)CC2)nn1 (stereo not shown)	-4.465% and 98.34%
Cc1noc(C)c1CN1CC[C@@H](OCC2CC2)[C@@H](Cc2ccccc2)C1.O=C(O)C(F)(F)F	22.67%
Cn1ncc2c(NCCC34CCCN3CCC4)nc(C3CCCC3)nc21	71.38% and 24.93%
Cc1cc(NCCNc2cccnc2)nc(-c2ccccc2O)n1	44.59%
COc1ccccc1C(N)CC(C)C (stereo not shown)	-10.92% and -0.11%
O=C(NCc1ccc(OCC2CC2)nc1)C1COc2ccccc2O1 (stereo not shown)	-2.171%
Cc1ccc(C(=O)NS(C)(=O)=O)cc1-n1cccc1	32.2%
O=C(c1ccnn1COc1ccc(Cl)cc1)N1CCCC1	83.89% and 8.065%
Cn1cc(C(C)(O)CNc2ccc(Cl)c(C#N)n2)cn1 (stereo not shown)	-2.163%
Clc1cccc(-c2noc(CCN3CCN(c4ccncc4)CC3)n2)c1	29.59% and 25.33%
Cc1cnc2c(S(=O)(=O)NCC3CCS(=O)(=O)C3)cccc2c1 (stereo not shown)	4.318%
O=C(NCCNc1ncccn1)C1CCCC1	-2.146% and -8.449%
O=C(CCSc1ccc2c(c1)OCCO2)NCC1CCS(=O)(=O)C1 (stereo not shown)	-33.94%
COc1cc(CN2CCCC2)ccc1Oc1ncccc1C(F)(F)F	12.32% and 13.08%
CN(Cc1nc(N)c2ccccc2n1)CC1CCCN1c1cccnn1 (stereo not shown)	10.42%
COCCC(=O)N1CCC2(CC1)CC(c1ccccc1)CN(C1CC1)C2 (stereo not shown)	-26.86%
Cc1cc2c(cc1Cl)C=CC1(CCN(CC(=O)NC3CCCC3)CC1)O2	51.26%
O=C(Cn1cc(I)cn1)N1CCCCCC1	-0.6731%
COCCCNS(=O)(=O)c1cc(Br)sc1C	15.58%
Cc1nonc1NC(=O)CCn1cc(Br)ccc1=O	128.9% and 5.98%
Cc1nnc(N2CC[C@@H](OCC3CC3)[C@@H](Cc3ccccc3)C2)s1.O=C(O)C(F)(F)F	49.11% and 60.38%
Cc1ccccc1CN(C)CC(O)COCc1ccccc1Cl (stereo not shown)	-52.38%
CCc1cccc2cc(CN)c(=O)[nH]c12	-10.97%
CCNc1cc2c(nn1)CCN(C(=O)C1Cc3ccccc3O1)C2 (stereo not shown)	-8.588%
Cc1cnn(C2CN(c3ccccc3S(=O)(=O)C(F)(F)F)C2)c1	53.78%
Clc1cncc(NCc2cccc(COC3CCOCC3)c2)n1	23.25% and 22%
COc1cccc(-c2cc(C(=O)NCCn3nc(C)nc3C)[nH]n2)c1	20.62%
CC(C)(C)c1n[nH]cc1CN1CCc2nc3ccsc3c(=O)n2CC1	-29.81%
c1ccc(Cc2noc(CN3CCCCC3Cn3cccn3)n2)cc1 (stereo not shown)	9.009%
COc1cc(S(=O)(=O)N2C[C@@H](C)[C@@](C)(O)C2)c(C)cc1C	5.143%
CC(C)(C)Oc1ccc(NCC(=O)NCc2ccco2)cc1	4.372%
CN(Cc1ccc(N(C)C)cc1)C(=O)CSc1ccc(Br)cc1	-13.8%
CCc1ncc(C(=O)N2CCN(C(=O)COc3ccccc3)CC2)cn1	20.22%

Some entries from above, unchanged:

SMILES,percent effect
c1ccc2sc(N3CCC4(CCCN4Cc4ncc[nH]4)CC3)nc2c1,28.15%
COc1cn(CC(=O)N2CCN(c3ccc(F)cc3)CC2)c(C)cc1=O,7.124%
Cn1cc(C(C)(O)CNc2ccc(Cl)c(C#N)n2)cn1 (stereo not shown),-2.163%
Cc1nc(N(C)C)nc(C)c1NC(=O)c1ccccc1F,23.61%
CCc1ncc(C(=O)N2CCN(C(=O)COc3ccccc3)CC2)cn1,20.22%
CCC(=O)Nc1ccc(F)c(S(=O)(=O)NC(C)(C)C)c1,-48.39%
CNC(=O)CNCC1(O)CCCN(Cc2ccc(F)c(F)c2)C1=O (stereo not shown),23.51%
CN(C)c1cc(C2CCCN2C(=O)c2noc3c2CCCC3)ccn1 (stereo not shown),-0.1032%
c1ccc(-c2cc(CN3CCCC(Cn4cncn4)C3)on2)cc1 (stereo not shown),36.53%
CC(C)(C)c1n[nH]cc1CNCC1CCN(CC(F)(F)F)C1.Cl (stereo not shown),12.44% and -4.013%
FC(F)(F)c1cccc(OC2CCN(Cc3ncc[nH]3)CC2)c1,24.1%